The filed quantity is “Percent Effect” (%).
The record does not define 0% and 100%; most values in the screen are far below 50% and negative numbers occur (in some assays of this library far below -100).
The entries come from a sample that favours strong results.

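Phenotypic screen: M. tuberculosis growth, cholesterol and DPPC medium, 4 days; the read-out is not stated. Compounds at 500 µM. The record gives no direction; compounds that gave an IC50 in retests scored well above the rest, so higher reads as more growth inhibition. Of about 18,000 compounds tested this way, about 900 (5%) reached 50% or more in at least one test.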

{"compound": "COc1cc(Cl)cc(CN(C)[C@H]2COC[C@@H]2O)c1OC", "effect": 8.008}
{"compound": "CCC(=O)N1CCCC(NS(C)(=O)=O)C1", "stereo": "stereo unspecified", "effect": 3.302}
{"compound": "CNC(=O)NC(=O)CN(C)CCOc1cccc(F)c1", "effect": 28.67}
{"compound": "Cc1c[nH]c(C(C)NC(=O)c2ccc3[nH]nnc3c2)n1", "stereo": "stereo unspecified", "effect": 5.341}
{"compound": "CCOC(=O)c1cccnc1NCc1cnn(C)c1C", "effect": 64.56}
{"compound": "O=C1CN(C(=O)CCOc2ccc(Cl)cc2)CCN1", "effect": 6.455}
{"compound": "CCOc1ncc(C(=O)N(C)C)cc1Cl", "effect": -5.732}
{"compound": "NCC(=O)Nc1cccc(F)c1", "effect": -18.94}
{"compound": "Cc1ccc(C(=O)NCc2nnnn2C2CC2)c(Br)c1", "effect": -10.42}
{"compound": "NCc1cc(Oc2cccc(F)c2)ccn1", "effect": 77.72}
{"compound": "CC(=O)Nc1cccc(C(C)O)c1", "stereo": "stereo unspecified", "effect": -7.766}
{"compound": "CC(NC(=O)CSc1nc(=O)[nH]n1C)c1cccs1", "stereo": "stereo unspecified", "effect": 95.31}
{"compound": "CC1=CC(=O)N(Cc2ccccc2)C1=O", "effect": 112}
{"compound": "CC(C)NS(=O)(=O)c1cc(CO)ccc1F", "effect": 15.96}
{"compound": "CCN(CC)C(=O)C1Cn2cccc2C(=O)N1C", "stereo": "stereo unspecified", "effect": 8.285}
{"compound": "COc1cc(CNCc2ccccn2)ccc1O", "effect": -14.58}
{"compound": "NC(=O)C1(NC(=O)Nc2cccc(Br)c2)CC1", "effect": 5.497}
{"compound": "CCn1ccnc1C1CCCCN1", "stereo": "stereo unspecified", "effect": 8.924}
{"compound": "O=C(Oc1nsnc1N1CCOCC1)c1ccccc1", "effect": -9.24}
{"compound": "O=C(Nc1nc(-c2ccsc2)ns1)C1CCCN1", "stereo": "stereo unspecified", "effect": 64.9}
{"compound": "O=C(CCc1ccccc1F)Nc1nnc[nH]1", "effect": -14.32}
{"compound": "Cc1ccc(NC(=O)C2CC(=O)N=C(N)S2)cc1Cl", "stereo": "stereo unspecified", "effect": 12.66}
{"compound": "CN(C(=O)c1cccnc1)C1CCc2ccccc21", "stereo": "stereo unspecified", "effect": 17.07}
{"compound": "NC(=O)C1CCc2ccccc21", "stereo": "stereo unspecified", "effect": -30.6}
{"compound": "NCCNc1nccc(C(F)(F)F)n1", "effect": 4.024}
{"compound": "Cc1cc(C(=O)N[C@@H]2CCOC[C@H]2O)c(C)n1C", "effect": -35.27}
{"compound": "NCc1cc(Oc2ccc(F)c(F)c2)ccn1", "effect": -5.996}
{"compound": "NCC1(CC(N)=O)CCCCC1", "effect": 10.95}
{"compound": "N#Cc1ccnc(OC(F)F)c1", "effect": -19.93}
{"compound": "CC(C)(C)c1cnc(CN2CCOCC2C(N)=O)o1", "stereo": "stereo unspecified", "effect": 33.66}
{"compound": "O=C(Cn1ccc(=O)[nH]c1=O)Nc1ccc(Br)cc1", "effect": -5.199}
{"compound": "Cn1cc(NC(=O)NCCc2nccs2)cn1", "effect": 6.164}
{"compound": "CCc1noc(C)c1C(=O)Nc1cccnc1", "effect": -5.2}
{"compound": "Cc1nnc(C2CCCN2)o1", "stereo": "stereo unspecified", "effect": -4.692}
{"compound": "O=C(Cn1ccc(C(F)(F)F)n1)Nc1ccccn1", "effect": 24.85}
{"compound": "COc1cccc([C@@H]2C[C@H]2N)c1", "effect": 50.33}
{"compound": "Cc1nc(NC(=O)c2cccs2)sc1C(=O)N(C)C", "effect": 20.3}
{"compound": "O=C(NCCSCCCO)c1cccc2cc[nH]c12", "effect": -7.085}
{"compound": "CCCNC(=O)C1CCCNC1", "stereo": "stereo unspecified", "effect": -0.6842}
{"compound": "Cc1cc(C)c(CN2CCOC(CN)C2)cc1C", "stereo": "stereo unspecified", "effect": 77.75}

Measurements from “University of Dundee, Small-Polar-MMV Screening Library” (2021), ChEMBL document CHEMBL3988442.